Test results reported in patent publication US7666997 (Dana-Farber, dated 2010).

Biological target: SV40 large T antigen (SV40, UniProt P03070 1-708)

B1: HA-tagged NBS-1α (other, not shown: small tags and cut ends)
chain: MAQSTATSPDGGTTFEHLWSSLEPDSTYFDLPQSSRGNNEVVGGTDSSMDVFHLEGMTTSVMAQFNLLSSTMDQMSSRAASASPYTPEHAASVPTHSPYAQPSSTFDTMSPAPVIPSNTDYPGPHHFEVTFQQSSTAKSATWTYSPLLKKLYCQIAKTCPIQIKVSTPPPPGTAIRAMPVYKKAEHVTDVVKRCPNHELGRDFNEGQSAPASHLIRVEGNNLSQYVDDPVTGRQSVVVPYEPPQVGTEFTTILYNFMCNSSCVGGMNRRPILIIITLEMRDGQVLGRRSFEGRICACPGRDRKADEDHYREQQALNESSAKNGAASKRAFKQSPPAVPALGAGVKKRRHGDEDTYYLQVRGRENFEILMKLKESLELMELVPQPLVDSYRQQQQLLQRPSHLQPPSYGPVLSPMNKVHGGMNKLPSVNQLVGQPPPHSSAATPNLGPVGPGMLNNHGHAVPANGEMSSSHSAQSMVSGSHCTPPPPYHADPSLVSFLTGLGCPNCIEYFTSQGLQSIYHLQNLTIEDLGALKIPEQYRMTIWRGLQDLKQGHDYSTAQQLLRSSNAATISIGGSGELQRQRVMEAVHFRVRHTITIPNRGGPGGGPDEWADFGFDLPDCKARKQPIKEEFTEAEIH
- binding result: no binding
